The values that follow come from publication PMC3166295 (PLoS ONE, 2011).

Test [1] deals with 8H5 mAb. The test is described as follows: Affinity determination by surface plasmon resonance (BIAcore). The class given is binding, murine. The note with it: for Kd: read-out: Kd (dissociation constant for 8H5), BIAcore, 8H5 mAb (19 µg/ml) captured on protein A CM-5 chip, peptide at five concentrations 75.8 to 758 nM, 20 µl/min, 2 min. (In general: SPR reads the build-up and loss of mass on a sensor chip optically.)

For test [2], the system named is 8H5 mAb. The test can be described thus: Titration of phage displaying 12mer peptides on 8H5-coated microplates (phage ELISA). The test is classed as binding, murine. The settings on record: phage displaying the peptide; 10^13 phage serially diluted, reacted 30 min with 8H5-coated microplates, detected with anti-phage. A general note: In an ELISA, binding on a coated surface is turned into a signal by an enzyme label.

What is called Kd is the free concentration of one partner at which half of the binding sites on the other are occupied at equilibrium, for simple one-to-one binding.

As to `CC[C@H](C)[C@H](NC(=O)[C@@H](NC(=O)[C@H](CC(C)C)NC(=O)[C@@H]1CCCN1C(=O)[C@@H](NC(=O)[C@@H](N)CC(=O)O)[C@@H](C)O)[C@@H](C)O)C(=O)N[C@@H](C)C(=O)NCC(=O)N[C@@H](CC(C)C)C(=O)N[C@@H](CCCCN)C(=O)N[C@@H](CC(C)C)C(=O)N[C@H](C(=O)O)C(C)C` [II-1c], the Kd in the test on 8H5 mAb [1] turned out to be 11.5 nM. The “8H5 titer (Tod1.5): phage dilution yielding an OD value of 1.5” value (shortened to “8H5 titer”) in the test with 8H5 mAb [2] is listed as 7.07.

As for `CC(C)C[C@H](NC(=O)[C@H](C)NC(=O)[C@H](CCC(N)=O)NC(=O)[C@H](CCCCN)NC(=O)[C@@H](NC(=O)[C@H](CC(C)C)NC(=O)[C@H](CCC(=O)O)NC(=O)[C@@H](NC(=O)[C@@H](N)CC(=O)O)[C@@H](C)O)[C@@H](C)O)C(=O)N[C@@H](CCCNC(=N)N)C(=O)N[C@@H](CC(C)C)C(=O)N[C@H](C(=O)O)C(C)C` [III-2a], the Kd in the test on 8H5 mAb [1] is 28.4 nM. The “8H5 titer” value in the test with 8H5 mAb [2] was determined as 3.27.

As to `CC[C@H](C)[C@H](NC(=O)[C@@H](NC(=O)[C@H](CC(C)C)NC(=O)[C@H](CCC(=O)O)NC(=O)[C@@H](NC(=O)[C@@H](N)CCC(=O)O)[C@@H](C)O)[C@@H](C)O)C(=O)N[C@@H](C)C(=O)N[C@@H](C)C(=O)N[C@@H](CC(C)C)C(=O)N[C@@H](CCCCN)C(=O)N[C@@H](Cc1ccc(O)cc1)C(=O)N[C@H](C(=O)O)C(C)C` [IV-1b], in the test with 8H5 mAb [1], the Kd stood at 980 nM. Also, in the test on 8H5 mAb [2], the “8H5 titer” value turned out to be 2.76.

`CC[C@H](C)[C@H](NC(=O)[C@@H](NC(=O)[C@H](CC(C)C)NC(=O)[C@@H]1CCCN1C(=O)[C@@H](NC(=O)[C@@H](N)CCC(=O)O)[C@@H](C)O)[C@@H](C)O)C(=O)N[C@@H](C)C(=O)NCC(=O)N[C@@H](CC(C)C)C(=O)N[C@@H](CCCCN)C(=O)N[C@@H](CC(C)C)C(=O)N[C@@H](CCCCN)C(=O)O` [V-1b]: the “affinity for 8H5 relative to the parental p125” value in the test on 8H5 mAb [1] (multiple of the affinity of p125 (discussion)) came out at 38 time. The equilibrium dissociation constant (Kd) in the test with 8H5 mAb [1] amounted to 3.16 nM. For the same molecule, the “8H5 titer” value with 8H5 mAb [2] is listed as 13.23.
